Assay results taken from patent publication US9156811B2 (priority 2008, dated 2015).
Where two headings read alike, the source gives them in different places.

Chains of the proteins cited; added tags and fusions are not shown. Residues count along the entry.
UniProt Q388H8, 1-446: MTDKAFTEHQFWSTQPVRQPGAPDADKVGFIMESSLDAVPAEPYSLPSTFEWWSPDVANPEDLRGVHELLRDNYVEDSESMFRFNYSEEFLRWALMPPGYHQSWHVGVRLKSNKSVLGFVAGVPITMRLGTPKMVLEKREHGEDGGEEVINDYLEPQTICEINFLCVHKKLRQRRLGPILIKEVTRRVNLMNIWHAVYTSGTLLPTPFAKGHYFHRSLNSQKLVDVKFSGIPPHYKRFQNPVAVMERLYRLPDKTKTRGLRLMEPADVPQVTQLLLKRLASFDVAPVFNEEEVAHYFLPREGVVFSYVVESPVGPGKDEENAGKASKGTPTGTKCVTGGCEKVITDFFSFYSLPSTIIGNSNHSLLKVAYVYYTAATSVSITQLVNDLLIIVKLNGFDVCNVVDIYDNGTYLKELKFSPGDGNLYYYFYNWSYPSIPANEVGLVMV
UniProt Q4Q5S8, 1-421: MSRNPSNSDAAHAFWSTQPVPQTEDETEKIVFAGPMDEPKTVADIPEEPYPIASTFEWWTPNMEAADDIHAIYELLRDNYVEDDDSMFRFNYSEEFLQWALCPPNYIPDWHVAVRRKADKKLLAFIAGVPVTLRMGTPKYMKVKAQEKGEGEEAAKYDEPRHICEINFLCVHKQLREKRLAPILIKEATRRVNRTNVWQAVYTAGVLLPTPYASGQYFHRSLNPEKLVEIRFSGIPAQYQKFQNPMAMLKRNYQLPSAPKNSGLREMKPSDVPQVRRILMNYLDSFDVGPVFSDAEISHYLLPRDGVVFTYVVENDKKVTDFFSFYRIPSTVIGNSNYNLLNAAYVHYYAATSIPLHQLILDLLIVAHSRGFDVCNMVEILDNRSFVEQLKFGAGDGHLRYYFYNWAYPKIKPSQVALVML

Tests used:
[1] = target: T. brucei N-myristoyl transferase (Trypanosoma brucei brucei (strain 927/4 GUTat10.1), UniProt Q388H8); assay: NMT enzyme inhibition scintillation proximity assay, T. brucei NMT; type: biochemical
[2] = test system: Trypanosome (T. brucei brucei); assay: In-vitro antitrypanosomal efficacy assay (cell growth, resazurin); type: cell-based
[3] = target: L. major N-myristoyl transferase (Leishmania major, UniProt Q4Q5S8); conditions: read-out: IC50 (μM) NMT Enzyme (LmNMT)
[4] = T. brucei brucei, blood stream form, variant 221

| Structure (SMILES) | ED50 (μM) T. brucei ([2]; T. brucei cell growth) | also measured |
| --- | --- | --- |
| Cc1nn(C)c(C)c1NS(=O)(=O)c1ccc(N2CCc3ccc(Br)cc3C2)nc1 | >1 µM | IC50 ([1]; read-out: IC50 (μM) NMT Enzyme): 2.4 µM |
| Cc1nn(C)c(C)c1NS(=O)(=O)c1ccc(NCc2ccccc2)nc1 | >1 µM | – |
| Cc1cc(CNc2ccc(S(=O)(=O)Nc3c(C)nn(C)c3C)cn2)no1 | 7.9 µM | – |
| Cc1nn(C)c(C)c1NS(=O)(=O)c1ccc(Cn2cnc(Br)c2)cc1 | >1 µM | – |
| Cc1nn(C)c(C)c1NS(=O)(=O)c1c(Cl)cc(-c2ccc(CO)cc2)cc1Cl | 3.4 µM | – |
| Cc1c(NS(=O)(=O)c2ccc(Br)cc2)c(Cc2ccccc2)nn1C | – | ED50 (μM) T. brucei [2, 4]: 33.9 µM; IC50 [3]: > 1 µM |
| Cc1nn(C)c(C)c1NS(=O)(=O)c1ccc(CNc2cccc3ccccc23)cc1 | >1 µM | – |
| Cc1nn(C)c(C)c1NS(=O)(=O)c1c(Cl)cc(-c2ccc3[nH]ccc3c2)cc1Cl | >1 µM | – |
| Cc1nn(C)c(C)c1NS(=O)(=O)c1ccc(C[S+]([O-])c2ccc3ccccc3c2)cc1 (centres unmarked) | >1 µM | IC50 ([1]; read-out: IC50 (μM) NMT Enzyme, value printed without enzyme tag in the NMT Enzyme column (taken as T. brucei NMT)): 9.3 µM |
| Cc1nn(C)c(C)c1NS(=O)(=O)c1ccc(NCCN(C)C)nc1 | >1 µM | – |
| Cc1noc(C)c1NS(=O)(=O)c1ccc(Cl)nc1 | >1 µM | – |
| COc1ccc(-c2cc(Cl)c(S(=O)(=O)Nc3c(C)nn(C)c3C)c(Cl)c2)c(OC)c1 | >1 µM | – |
| Cc1nn(C)c(C)c1NS(=O)(=O)c1c(Cl)cc(-c2ccc(CN3CCCCC3)cc2)cc1Cl | >1 µM | – |
| Cc1nn(C)c(C)c1N(C)S(=O)(=O)c1ccc(Cl)nc1 | >1 µM | – |
| Cc1c(N(C(F)F)S(=O)(=O)c2c(Cl)cc(Br)cc2Cl)c(CC(C)C)nn1C | – | IC50 ([1]; read-out: IC50 (μM) NMT Enzyme (T. brucei NMT), T. brucei NMT, value without parentheses): 5.3 µM; ED50 (μM) T. brucei [2, 4]: >1 µM; IC50 ([3]; Leishmania major NMT, value in parentheses): 1.2 µM |
| Cc1nn(C)c(C)c1NS(=O)(=O)c1c(Cl)cc(-c2ccc(OC(F)(F)F)cc2)cc1-c1ccc(OC(F)(F)F)cc1 | >1 µM | – |
| Cc1nn(C)c(C)c1NS(=O)(=O)c1ccc(Cn2ccnc2Br)cc1 | >1 µM | – |
| Cc1nn(C)c(C)c1NS(=O)(=O)c1cccc(C#N)c1 | >1 µM | – |
